The source of these data is PMC10998906 (NPJ Vaccines, 2024).

In this test the target is H1 monomeric (NL09 HA) (Influenza A virus …, UniProt C3PSV2, strain). Kind of test: ELISA. (An ELISA detects its analyte on a solid surface through an enzyme-linked reagent.)

B1: CR9114 antibody (antibody, V domains shown)
VH: QVQLVQSGAEVKKPGSSVKVSCKSSGGTSNNYAISWVRQAPGQGLDWMGGISPIFGSTAYAQKFQGRVTISADIFSNTAYMELNSLTSEDTAVYFCARHGNYYYYSGMDVWGQGTTVTVSS
VL: QSALTQPPAVSGTPGQRVTISCSGSDSNIGRRSVNWYQQFPGTAPKLLIYSNDQRPSVVPDRFSGSKSGTSASLAISGLQSEDEAEYYCAAWDDSLKGAVFGGGTQLTVL
notes: copies: 2 + 2
Turning to B1, the binding result is given as “binds”.
